Results taken from the supplement of paper PMC9931576.
Human monoclonal antibodies against the spike receptor-binding domain (heavy:light variable regions). IC50 against pseudoviruses bearing the spike of naturally observed variants; lower = stronger; >10 µg/ml means not reached at the top dose. No active / inactive call. The stated detection limit is 0.0005 µg/ml; values near or below 0.001 µg/ml lie at the floor of the assay.

B1: BD55-4464 (protein)
chain 1: EVQLVESGGGVVQPGGSRRLSCVASGFTFTSYDIHWVRQGTGKSLEWVSTIDTAGDTYYADSAKGRFTISRENAKKSVYLQMSSLRAGDTAVYFCVRAYPFYDMLTGDTYHYYGLDVWGQGTTVIVSS
chain 2: EIVLTQSPGTLSLSPGERATLSCRASQSVSTNYLAWFQQKPGQAPRLLIYGASSRATGIPDRFSGSGSGTDFTLTISFLEPEDSAVYYCQQYGRSPPLTFGGGTKVEIK
B2: BD55-5001 (protein)
chain 1: QVQLVQSGSELKKPGASVKVSCKTSGYTFSTYAINWVRQAPGQGLEWMGWINTDTGIPTYAQGFTGRFVLSLDTSVGTAYLQISSLKAEDTAVYYCARADSGSYSWWFDPWGQGTLVTVSS
chain 2: VIWMTQSPSSLSASIGDRVTISCRLSYGISSELVWYKQKPGKAPELLIYAASILQSGVPSRFSGTGSGTDFTLTISGLQSEDFATYYCQQYYSFPLTFGQGTKVEIK
B3: BD55-4707 (protein)
chain 1: EVQLVQSGVEVKKPGESLKISCKGSGYTYTTQWIGWVRQMPGKGLEWMGIIYPGDSETIYSPSFQGQVTISADKSISTAYLQWNSLKASDTAMYYCAASGGLRWGLEYWGQGTLVTVSS
chain 2: DIVMTQSPESLAVSLGERATINCKSSQSVLYSSNNKNSLAWYQQKPGQPPKLLIYWASTRESGVPDRFSGSGSGTNFTLTISSLQAEDVAVYYCQQYYNTWYTFGQGTKLEIK
B4: BD55-4804 (protein)
chain 1: QVQLVQSGSELKKPGASVKVSCKASGYTFTSYAMNWVRQAPGQGLEWMGWINTDTGNPTFAQGFTGRFVFSLDTSVSTAYLQISTLKAEDTAVYYCARADRDYFGYEAFDIWGQGTVVTVSS
chain 2: DIQMTQSPSSLSASVGDRVTITCRASQSISNYVNWYQQKPGKAPKNLIYAASSLQSGVPSRFSGSGSGTDFTLTISSLQPEDFATYYCQQTYSTHLLSFGGGTKVEIK
B5: BD55-1028 (protein)
chain 1: EVQLVESGGGLVQPGESLRLSCVASGFSFSSYDMHWVRQDTKKGLEWVAAIGTSGDIYYADSVKGRFIISREAAKASLYLQMNSLRAGDSARYYCTRGDSYPSGTYSGTGYYFDSWGQGTLVAVSS
chain 2: DIQLTQSQPSLSASVGDRVTITCRASQSIGRFLNWYQQKAGKAPNLLIYATSNLQSGVPSRFSATGSGTDFTLTISSLQPEDFATYYCQQSYSMPPWTFGQGTKLEIK
B6: BD55-4418 (protein)
chain 1: QVQLVESGGGVVQPGSSLRLSCAASGFTFSNYDIHWVRQAPGKGLEWVAVISRDGSSKFYADSVQGRVGISRDNSKTTLHLSSLREEDTAVYYCAKEQTYDTMTGLYYFDSWGQGTLVTVSS
chain 2: DIQMTQSPSSLSASVGDRVTITCRASQSIGRHLNWYQQKPGKAPKPLIYAASNLQGGVPSRFSGSGAGTHFTLTISSLQPEDFATYYCQQNYNTPQITFGPGTKVDI

The binders below were run against SARS-CoV-2 Omicron BA.1 spike pseudovirus (assay: pseudovirus neutralization IC50; higher = weaker neutralization).
Description: (§1)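 Single-round VSV luciferase pseudovirus mixed with antibody dilutions for 1 h and put on Huh-7 cells for about a day; IC50 from the dose curve.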

Binder	pseudovirus neutralization IC50 [µg/mL]
B1	> 10
B2	> 10
B3	> 10
B4	> 10
B5	> 10
B6	> 10

Each binder was assayed against SARS-CoV-2 Omicron BA.2 spike pseudovirus in the same assay as above.
Description: as §1

Binder	pseudovirus neutralization IC50 [µg/mL]
B1	> 10
B2	> 10
B3	> 10
B4	> 10
B5	> 10
B6	> 10

The binders below were run against SARS-CoV-2 Omicron BA.2.75 spike pseudovirus in the same assay as above.
Description: as §1

Binder	pseudovirus neutralization IC50 [µg/mL]
B1	> 10
B2	> 10
B3	> 10
B4	> 10
B5	> 10
B6	> 10

The binders below were run against SARS-CoV-2 Omicron BA.5 spike pseudovirus in the same assay as above.
Description: as §1

Binder	pseudovirus neutralization IC50 [µg/mL]
B1	> 10
B2	> 10
B3	> 10
B4	> 10
B5	> 10
B6	> 10

These binders were tested against SARS-CoV-2 Omicron BQ.1.1 spike pseudovirus in the same assay as above.
Description: as §1

Binder	pseudovirus neutralization IC50 [µg/mL]
B1	> 10
B2	> 10
B3	> 10
B4	> 10
B5	> 10
B6	> 10

Each binder was assayed against SARS-CoV-2 Omicron XBB spike pseudovirus in the same assay as above.
Description: as §1

Binder	pseudovirus neutralization IC50 [µg/mL]
B1	> 10
B2	> 10
B3	> 10
B4	> 10
B5	> 10
B6	> 10

These binders were tested against SARS-CoV-2 early D614G spike pseudovirus in the same assay as above.
Description: as §1

Binder	pseudovirus neutralization IC50 [µg/mL]
B1	3.32
B2	0.00677
B3	> 10
B4	> 10
B5	> 10
B6	2.47
